# PubChem BioAssay AID651828
# The list shows a part of the results, in another mix than the full data. The source made the active and inactive calls. No stated cut-off is given here; in the data, active means % bound below about 75%; inactive means the rest.
# Target: Nucleoprotein (Rift valley fever virus (strain ZH-548 M12)) (UniProt P21700)
# Test: inhibitors of RVFV nucleoprotein–RNA binding, primary screen, biochemical, fluorescence polarization (AID 651828)
# Conditions: RVFV N-RNA binding, stronger effect = lower value, concentration not given here
row,SMILES,% bound
1,CN1CCC(Nc2ccc(F)cc2)CC1,inactive: 98.2%
2,CCCN1CCC(Nc2cc(OC)cc(OC)c2)CC1,inactive: 101%
3,CCN1CCC(Nc2ccc(F)cc2)CC1,inactive: 93.4%
4,CCCN1CCC(Nc2ccc(OC)c(OC)c2)CC1,inactive: 99.5%
5,CCOC(=O)N1CCC(Nc2cccc(C)c2)CC1,inactive: 93%
6,CCOC(=O)N1CCC(Nc2ccc(F)cc2)CC1,inactive: 91.5%
7,c1ccc(CN2CCC(Nc3ccc4c(c3)OCO4)CC2)cc1,inactive: 99.8%
